Anti-infective test results gathered from many reports (values: NIAID ChemDB through PubChem).

Common to all: tests in culture; agent: Human herpesvirus 6; measure: EC50

Conditions beyond the fields shown may differ between rows.

structure | strain or isolate | method | cell line | result
C[C@H]1O[C@H](n2c(Br)nc3cc(Cl)c(Cl)cc32)[C@@H](O)[C@H]1O | 6B | hybridisation | MOLT-3 | 55 µM
CCCCCSc1nc(N)nc2c1ncn2/C=C1/C[C@@H]1CO | TYPE 6A | flow cytometry | HSB-2 | 16.8 µM
Nc1nc2c(ncn2COC(CO)CO)c(=O)[nH]1 | - | cytopathic effect | Human cord blood lymphocytes | 0.93 µM
CC(C)Nc1nc2cc(Cl)c(Cl)cc2n1[C@@H]1OC[C@@H](O)[C@H]1O | 6a | hybridisation | HSB-2 | >20 µM
C=CCNc1nc(N)nc2c1ncn2/C=C1/C[C@@H]1CO | TYPE 6B | flow cytometry | HSB-2 | 3.6 µM
Nc1ccn(C[C@@H](CO)OCP(=O)(O)O)c(=O)n1 | TYPE 6B | - | MOLT-3 | 3.1 µg/mL
O[C@@H]1[C@H](O)CO[C@H]1n1c(NC2CC2)nc2cc(Cl)c(Cl)cc21 | 6a | hybridisation | HSB-2 | >100 µM
O=c1[nH]c(=O)n([C@H]2C[C@H](O)[C@@H](CO)O2)cc1/C=C/Br | - | cytopathic effect | Human T-lymphoblasts | >1 µM
CCCCCOc1nc(N)nc2c1ncn2/C=C1/C[C@@H]1CO | TYPE 6A | flow cytometry | HSB-2 | 2.3 µM
N#CC1C(c2ccccc2)Nc2sccc2S1(=O)=O | GS (TYPE 6A) | cytopathic effect | HSB-2 | >20 µg/mL
Nc1nc(NCC2CC2)c2ncn(/C=C3/C[C@@H]3CO)c2n1 | TYPE 6A | flow cytometry | HSB-2 | 108 µM
Nc1nc2c(ncn2COC(CO)CO)c(=O)[nH]1 | Z-29 (subtype 6B) | cytopathic effect | MOLT-3 | 16 µg/mL
Nc1nc2c(ncn2/C=C2/CC2(CO)CO)c(=O)[nH]1 | TYPE 6B | flow cytometry | HSB-2 | 0.6 µM
N#CC1C(c2ccc(Cl)cc2)Nc2ccccc2S1(=O)=O | Z29 (TYPE 6B) | cytopathic effect | MOLT-3 | 1.5 µg/mL
CC(C)Nc1nc2cc(Cl)c(Cl)cc2n1[C@@H]1O[C@@H](C)[C@@H](O)[C@H]1O | 6a | hybridisation | HSB-2 | >10 µM
N#CC1C(c2ccc(Cl)cc2)Nc2sccc2S1(=O)=O | Z29 (TYPE 6B) | cytopathic effect | MOLT-3 | 2.1 µg/mL
OC[C@H]1CC(n2c(NC3CC3)nc3cc(Cl)c(Cl)cc32)[C@H](O)[C@@H]1O | 6B | hybridisation | MOLT-3 | >100 µM
Nc1nc2c(ncn2CCC(CO)CO)c(=O)[nH]1 | GS (subtype 6A) | - | HSB-2 | 85 µg/mL
Cc1c(S(=O)(=O)c2ccc(Cl)cc2)c(NC(=O)C(F)(F)F)n(Cc2ccccc2)c1C | GS (TYPE 6A) | hybridisation | HSB-2 | 12 µg/mL
Nc1nc2c(ncn2C[C@]2(CO)C[C@H]2CO)c(=O)[nH]1 | Z-29 (subtype 6B) | - | MOLT-3 | 3.48 µg/mL
Nc1ncc2c(ncn2COC(CO)CO)n1 | - | cytopathic effect | Human T-lymphoblasts | 0.0033 µM
NC(=O)c1c(Cl)c(-c2cccnc2)n2c1CCCC2 | TYPE A (GS) | hybridisation | CBLC | 0.017 µM
Nc1ncnc2c1ncn2/C=C1/CC1(CO)CO | TYPE 6B | flow cytometry | HSB-2 | 4.6 µM
O[C@@H]1[C@H](O)[C@H](O)CO[C@H]1n1c(Br)nc2cc(Cl)c(Cl)cc21 | GS (subtype 6A) | flow cytometry | HSB-2 | >125 µM
COc1nc(N)nc2c1ncn2/C=C1/CC1(CO)CO | TYPE 6B | flow cytometry | HSB-2 | 2.2 µM
Nc1nc2c(ncn2[C@@H]2C[C@H](CO)[C@H]2CO)c(=O)[nH]1 | Z-29 (subtype 6B) | - | MOLT-3 | 4.85 µg/mL
O[C@@H]1[C@H](O)[C@H](O)CO[C@H]1n1c(Br)nc2cc(Cl)c(Cl)cc21 | 6a | hybridisation | HSB-2 | 23 µM
CC(C)Nc1nc2cc(Cl)c(Cl)cc2n1[C@H]1O[C@@H](CO)[C@H](O)[C@@H]1O | Z-29 (subtype 6B) | flow cytometry | CBL | >106 µM

A second listing of 3 rows from above:

| structure | strain or isolate | method | cell line | result |
|---|---|---|---|---|
| N#CC1C(c2ccc(Cl)cc2)Nc2sccc2S1(=O)=O | Z29 (TYPE 6B) | cytopathic effect | MOLT-3 | 2.1 µg/mL |
| Nc1nc2c(ncn2CCC(CO)CO)c(=O)[nH]1 | GS (subtype 6A) | - | HSB-2 | 85 µg/mL |
| CCCCCOc1nc(N)nc2c1ncn2/C=C1/C[C@@H]1CO | TYPE 6A | flow cytometry | HSB-2 | 2.3 µM |

An empty or dashed field is not shown. ECn: concentration that inhibits the pathogen or its effect by n%.